Test results taken from patent publication US20250263469A1, “POLYPEPTIDES TARGETING SARS-COV-2 AND RELATED COMPOSITIONS AND METHODS” (HOSPITAL FOR SICK CHILDREN, published 2025).

B1: mAb 80 (antibody, V domains shown)
VH: QVQLVQSGAEVKKPGSSVKVSCKASGGTFNRYAFSWVRQAPGQGLEWMGGIIPIFGTANYAQKFQGRVTITADESTSTAYMELSSLRSEDTAVYYCARSTRELPEVVDWYFDLWGRGTLVTVSS
VL: DIVMTQSPDSLAVSLGERATINCKSSQSVLYSSNNKNYLAWYQQKPGQPPKLLIYWASTRESGVPDRFSGSGSGTDFTLTISSLQAEDVAVYYCQQYYSAPLTFGGGTKVEIKR
B2: mAb 298 (antibody, V domains shown)
VH: QVQLVQSGAEVKKPGASVKVSCKASGGTFSTYGISWVRQAPGQGLEWMGWISPNSGGTDLAQKFQGRVTMTRDTSTSTVYMELSSLRSEDTAVYYCASDPRDDIAGGYWGQGTLVTVSS
VL: not shown

Target: Spike of authentic SARS-CoV-2/SB2-P4-PB virus (SARS-CoV-2, UniProt P0DTC2 14-1273)
Assay: cell-based or functional assay

Row | Binder | IC50 SARS-CoV2/SB2-P4-PB (authentic virus), IgG [µg/mL]
1 | B1 | 12.7
2 | B2 | 2.2
